A mixed list of measured activities; the numbers were collected in NIAID ChemDB.

Common to all: target-level tests; agent: HIV-1; protein: Reverse transcriptase; method: nucleotide incorporation / radiometric; measure: IC50

ICn: concentration for n% inhibition. Neighbouring rows are from separate reports. An empty or dashed field is not shown.

SMILES | strain | mutations | value
Cc1cc(C)c(-n2nnnc2SCC(=O)Nc2ccc(C(N)=O)cc2Cl)c(C)c1 |  |  | <2 µM
CCN1c2ncc(COc3cc[n+]([O-])c(C(F)(F)F)c3)cc2C(=O)N(C)c2ccc(Cl)nc21 |  | RT-Y181C | <1 µM
CCC1(c2cccc(COc3ccccc3)c2)Oc2ccccc2-n2cccc2C1=O |  | RT-V106A | 8.3 µM
CCN1c2ncc(CN(C)c3ccccc3)cc2C(=O)N(C)c2ccc(Cl)nc21 | WT |  | <1 µM
O=C(CSc1nnnn1-c1ccc2c(c1)OCO2)Nc1ccccc1Cl |  |  | <2 µM
CCC1(c2ccc(Cn3ccsc3=N)cc2)Oc2ccccc2-n2cccc2C1=O |  | RT-V106A | >10 µM
CCN1c2ncc(CNc3cccc([N+](=O)[O-])c3)cc2C(=O)N(C)c2ccc(Cl)nc21 | WT |  | <1 µM
CC(=O)c1cccc(-n2nnnc2SCC(=O)Nc2ccccc2Cl)c1 |  |  | <2 µM
CCOc1cccc(C2(CC)Oc3ccccc3-n3cccc3C2=O)c1 |  | RT-V106A | 4.8 µM
CCN1c2ncc(C=O)cc2C(=O)N(C)c2ccc(F)nc21 | WT |  | ~1 µM
CCC1(c2cccc(Cl)c2)Cc2ccccc2-n2cccc2C1=O |  | RT-K103N | 10 µM
Cc1cc(C)c(-n2nnnc2SCC(=O)Nc2ccc(Cl)cc2F)c(C)c1 |  |  | <2 µM
CCC1(c2ccccc2)Cc2ccccc2-n2cccc2C1=O | WT |  | >10 µM
Cc1cc(C)c(-n2nnnc2SCC(=O)Nc2cccc(F)c2F)c(C)c1 |  |  | <2 µM
CCN1c2ncc(CSc3ncnc4[nH]ncc34)cc2C(=O)N(C)c2ccc(Cl)nc21 | WT |  | <1 µM
Cc1cn([C@H]2C=C[C@@H](COP(=O)(O)OP(=O)(O)OP(=O)(O)O)O2)c(=O)[nH]c1=O |  | RT-I132M | 0.12 µM
CCN1c2ncc(COc3ccc(O)cc3)cc2C(=O)N(C)c2ccc(Cl)nc21 | WT |  | <1 µM
CCC1(c2ccc(COc3cccnc3)cc2)Oc2ccccc2-n2cccc2C1=O | WT |  | 0.4 µM

A second listing of 2 rows from above:

| SMILES | strain | mutations | value |
|---|---|---|---|
| CCN1c2ncc(CN(C)c3ccccc3)cc2C(=O)N(C)c2ccc(Cl)nc21 | WT |  | <1 µM |
| Cc1cn([C@H]2C=C[C@@H](COP(=O)(O)OP(=O)(O)OP(=O)(O)O)O2)c(=O)[nH]c1=O |  | RT-I132M | 0.12 µM |